The values that follow come from patent US20200024330A1.

Holding throughout (test): cell-based or functional assay
In assay [1] the target is 162-pseudovirus panel representing all major circulating HIV-1 subtypes.
In assay [2] the target is All HIV-1 pseudoviruses (Env) of the cross-clade 162-pseudovirus panel, n=162.
In assay [3] the target is HIV-1 Env of all pseudoviruses of the cross-clade 162-pseudovirus panel (n = 162).
Assay [4] deals with HIV-1 Env of the clade A pseudoviruses of the cross-clade 162-pseudovirus panel (n=26).
The target of assay [5] is HIV-1 Env of the clade AE pseudoviruses of the cross-clade 162-pseudovirus panel (n=10).
Assay [6] concerns the target HIV-1 Env of the clade AG pseudoviruses of the cross-clade 162-pseudovirus panel (n=10).
The target of assay [7] is HIV-1 Env of the clade B pseudoviruses of the cross-clade 162-pseudovirus panel (n=31).
Assay [8] concerns the target HIV-1 Env of the clade C pseudoviruses of the cross-clade 162-pseudovirus panel (n=27).
In assay [9] the target is HIV-1 Env of the clade D pseudoviruses of the cross-clade 162-pseudovirus panel (n=25).
Assay [10] addresses HIV-1 Env of the clade F pseudoviruses of the cross-clade 162-pseudovirus panel (n=15).
For assay [11], the target named is HIV-1 clade B pseudoviruses (Env) of the cross-clade 162-pseudovirus panel, n=31.
For assay [12], the target named is HIV-1 clade C pseudoviruses (Env) of the cross-clade 162-pseudovirus panel, n=27.
Assay [13] has as its target HIV-1 clade D pseudoviruses (Env) of the cross-clade 162-pseudovirus panel, n=25.
Assay [14] addresses HIV-1 clade F pseudoviruses (Env) of the cross-clade 162-pseudovirus panel, n=15.
For assay [15], the target named is HIV-1 clade G pseudoviruses (Env) of the cross-clade 162-pseudovirus panel, n=15.
Assay [16] has as its target panel of HIV-1 pseudoviruses of Table 52.
Assay [17] concerns the target HIV-1 Env of all pseudoviruses of the cross-clade 162-pseudovirus panel (n=162).
The target in assay [18] is HIV-1 clade A pseudoviruses (Env) of the cross-clade 162-pseudovirus panel, n=26.
Assay [19] concerns the target HIV-1 clade AE pseudoviruses (Env) of the cross-clade 162-pseudovirus panel, n=10.
In assay [20] the target is HIV-1 Env of the clade G pseudoviruses of the cross-clade 162-pseudovirus panel (n=15).

B1: 5136_H01 (PGT-131) (antibody, V domains shown)
VH: QVQLQESGPGLVKPSETLSLTCTVSGDSINTGHHYWGWVRQVPGKGPEWIAHIHYNTAVLHNPALKSRVTISIFTLKNLITLSLSNVTAADTAVYFCVRSGGDILYYIEWQKPHWFYPWGPGILVTVSS
VL: QSALTQPPSASGSLGQSLTISCSGTGSDIGSWNFVSWYQQFPGRAPNLIIFEVNRRRSGVPDRFSGSKSGNTASLTVSGLRSEDEAEYFCSSLSGRWDIVFGGGTKVTVL
Turning to B1, in assay [1], the Percent viruses neutralized, IC50 <0.1 µg/ml was 13%. The same molecule showed a Percent viruses neutralized, IC50 <1 µg/ml in assay [1] of 23%. Further, in assay [1], the Percent viruses neutralized, IC50 <50 µg/ml stood at 40%. In addition, the Median IC50 (µg/ml) against viruses neutralized with an IC50 <50 µg/ml in assay [2] was 0.54 µg/mL; in assay [4], 0.73 µg/mL; in [5], 0.21 µg/mL; in assay [6], 0.16 µg/mL; in assay [7], 0.5 µg/mL; in [8] it was 15.8 µg/mL. In addition, the Median IC50 (µg/ml) against viruses neutralized with an IC50 <50 µg/ml was 2.67 µg/mL in assay [9] and 1.92 µg/mL in [10]. The same molecule returned a Median IC50 (µg/ml) against all viruses in assay [3] of 50 µg/mL. Besides, the Percent viruses neutralized with an IC50 <50 µg/ml in [11] is 29%; in [12], 21%; in assay [13], 8%; in assay [14], 7%; in assay [15], 0%.

B2: PGT-141 (4964_G22; 4993_K13) (antibody, V domains shown)
VH: QVQLVQSGPEVKKPGSSVKVSCKASGNTFSKYDVHWVRQATGQGLEWVGWMSHEGDKTESAQRFKGRVTFTRDTSASTAYMELRGLTSDDTAIYYCTRGSKHRLRDYVLYDDYGLINYQEWNDYLEFLDVWGHGTAVTVSS
VL: DTVVTQSPLSLPVTPGEAASMSCSSTQSLRHSNGANYLAWYQHKPGQSPRLLIRLGSQRASGVPDRFSGSGSGTHFTLKISRVEAEDAAIYYCMQGLNRPWTFGKGTKLEIK
Turning to B2, the median IC50 (ug/ml), pseudovirus neutralization in assay [16] was found to be 0.5 µg/mL.

B3: PGT-142 (4995_E20) (antibody, V domains shown)
VH: QVQLVQSGPEVKKPGSSVKVSCKASGNTFSKYDVHWVRQATGQGLEWVGWISHERDKTESAQRFKGRVTFTRDTSATTAYMELRGLTSDDTAIYYCTRGSKHRLRDYVLYDDYGLINYQEWNDYLEFLDVWGHGTAVTVSS
VL: DTVVTQSPLSLPVTPGEAASMSCSSTQSLRHSNGANYLAWYQHKPGQSPRLLIRLGSQRASGVPDRFSGSGSGTHFTLKISRVEAEDAAIYYCMQGLNRPWTFGKGTKLEIK
Turning to B3, in assay [16], the median IC50 (ug/ml), pseudovirus neutralization was found to be 0.25 µg/mL.

B4: PGT-143 (4980_N08) (antibody, V domains shown)
VH: QVQLEQSGAEVKKPGSSVKVSCKASGNTFSKYDVHWVRQATGQGLEWVGWMSHEGDKTESAQRFKGRVTFTRDTSASTAYMELRGLTSDDTAIYYCTRGSKHRLRDYVLYDDYGLINYQEWNDYLEFLDVWGHGTAVTVSS
VL: DTVVTQSPLSLPVTPGEAASMSCTSTQSLRHSNGANYLAWYQHKPGQSPRLLIRLGSQRASGVPDRFSGSGSGTHFTLKISRVEPEDAAIYYCMQGLNRPWTFGKGTKLEIK
The molecule B4 registered a median IC50 (ug/ml), pseudovirus neutralization in assay [16] of 0.37 µg/mL.

B5: 4970_K22 (PGT-144) (antibody, V domains shown)
VH: QVQLVQSGAEVKKPGSSVKVSCKASGNTFRKYDVHWVRQATGQGLEWVGWMSHEGDKTESAQRFKGRVSFTRDNSASTAYIELRGLTSDDTAIYYCTGGSKHRLRDYVLYDDYGLINQQEWNDYLEFLDVWGHGTAVTVSS
VL: DTVVTQSPLSLSVTPGEAASMSCTSTQSLRHSNGANYLAWYQHKPGQSPRLLIRLGSQRASGVPDRFSGSGSGTHFTLKISRVEADDAAIYYCMQGLNRPWTFGKGTKLEIK
The molecule B5 gave a Percent viruses neutralized, IC50 <0.1 µg/ml in assay [1] of 3%. Besides, in assay [1], the Percent viruses neutralized, IC50 <1 µg/ml is 16%. In addition, the Percent viruses neutralized, IC50 <50 µg/ml in [1] turned out to be 38%. Moreover, the Median IC50 (µg/ml) against viruses neutralized with an IC50 <50 µg/ml in assay [2] was found to be 8.37 µg/mL; in assay [18] it was 4.31 µg/mL; in [19], 3.41 µg/mL; in assay [11] it was 7.06 µg/mL; in assay [12], 12.4 µg/mL; in assay [13], 19.1 µg/mL. The Median IC50 (µg/ml) against viruses neutralized with an IC50 <50 µg/ml in [14] stood at 7.79 µg/mL; in assay [15], 7.57 µg/mL. This molecule came in with a Median IC50 (µg/ml) against all viruses in [17] of 50 µg/mL.

B6: 5114_A19 (PGT-128) (antibody, V domains shown)
VH: QPQLQESGPTLVEASETLSLTCAVSGDSTAACNSFWGWVRQPPGKGLEWVGSLSHCASYWNRGWTYHNPSLKSRLTLALDTPKNLVFLKLNSVTAADTATYYCARFGGEVLRYTDWPKPAWVDLWGRGTLVTVSS
VL: QSALTQPPSASGSPGQSITISCTGTSNNFVSWYQQHAGKAPKLVIYDVNKRPSGVPDRFSGSKSGNTASLTVSGLQTDDEAVYYCGSLVGNWDVIFGGGTKLTVL
Turning to B6, the Median IC50 (µg/ml) against viruses neutralized with an IC50 <50 µg/ml in [1] is 0.02 µg/mL; in assay [2] it was 0.32 µg/mL; in assay [5] it was 1.47 µg/mL; in assay [6], 0.13 µg/mL; in assay [9], 0.12 µg/mL; in assay [10], 1.17 µg/mL. In assay [1], this molecule gave a Percent viruses neutralized, IC50 <0.1 µg/ml of 50%. In addition, the Percent viruses neutralized, IC50 <1 µg/ml in assay [1] came to 60%. Moreover, in assay [1], the Percent viruses neutralized, IC50 <50 µg/ml turned out to be 72%. In addition, in [3], the Median IC50 (µg/ml) against all viruses came out at 0.1 µg/mL. The Percent viruses neutralized with an IC50 <50 µg/ml in assay [18] is 50%; in [11] it was 77%; in assay [13], 48%; in [14], 53%; in assay [15], 47%.

B7: 5343_B08 (PGT-135) (antibody, V domains shown)
VH: QLQMQESGPGLVKPSETLSLSCTVSGDSIRGGEWGDKDYHWGWVRHSAGKGLEWIGSIHWRGTTHYKESLRRRVSMSIDTSRNWFSLRLASVTAADTAVYFCARHRHHDVFMLVPIAGWFDVWGPGVQVTVSS
VL: EIVMTQSPDTLSVSPGETVTLSCRASQNINKNLAWYQYKPGQSPRLVIFETYSKIAAFPARFVASGSGTEFTLTINNMQSEDVAVYYCQQYEEWPRTFGQGTKVDIK
B7: the Percent viruses neutralized, IC50 <0.1 µg/ml in [1] was 13%. This molecule also showed a Percent viruses neutralized, IC50 <1 µg/ml in assay [1] of 23%. Also, in assay [1], the Percent viruses neutralized, IC50 <50 µg/ml came to 33%. Moreover, the Median IC50 (µg/ml) against viruses neutralized with an IC50 <50 µg/ml in [2] amounted to 1.13 µg/mL; in assay [4], 1.01 µg/mL; in [7] it was 2.87 µg/mL; in [8], 0.28 µg/mL; in assay [9] it was 1.13 µg/mL; in assay [10], 1.26 µg/mL. In addition, in assay [20], the Median IC50 (µg/ml) against viruses neutralized with an IC50 <50 µg/ml worked out at 1.01 µg/mL. Besides, in assay [3], the Median IC50 (µg/ml) against all viruses came to 50 µg/mL. The Percent viruses neutralized with an IC50 <50 µg/ml in assay [18] was 4%; in assay [11], 23%; in assay [13], 8%; in [15], 20%.

B8: 5329_C19 (PGT-136) (antibody, V domains shown)
VH: QLQLQESGPGLVKPSETLSLTCTVSGGSMRGTDWGENDFHYGWIRQSSAKGLEWIGSIHWRGRTTHYKTSFRSRATLSIDTSNNRFSLTFSFVTAADTAVYYCARHKYHDIFRVVPVAGWFDPWGQGLLVTVSS
VL: EIVMTQSPPTLSVSPGETATLSCRASQNVKNNLAWYQLKPGQAPRLLIFDASSRAGGIPDRFSGSGYGTDFTLTVNSVQSEDFGDYFCQQYEEWPRTFGQGTKVDIK
Take B8: the Percent viruses neutralized, IC50 <0.1 µg/ml in [1] is 3%. In assay [1], the Percent viruses neutralized, IC50 <1 µg/ml is 6%. This molecule displayed a Percent viruses neutralized, IC50 <50 µg/ml in assay [1] of 16%. For the same molecule, the Median IC50 (µg/ml) against viruses neutralized with an IC50 <50 µg/ml in [2] came out at 2 µg/mL; in [7], 2.09 µg/mL; in assay [8] it was 0.28 µg/mL; in assay [9], 2.1 µg/mL; in assay [20], 7.54 µg/mL. In assay [3], this molecule yielded a Median IC50 (µg/ml) against all viruses of 50 µg/mL. Moreover, the Percent viruses neutralized with an IC50 <50 µg/ml in assay [18] came out at 0%; in assay [11], 3%; in [13], 4%; in assay [14] it was 0%; in assay [15], 7%.
